Experiment: Selectivity ratio of IC50 for inhibition of bacterial CspB to Kd for binding affinity to bacterial CspB assessed as dissociation constant

For `Cl.NCc1ccc(-c2nc(-c3ccnc(Oc4ccc(C(F)(F)F)cc4)c3)no2)cc1`, the Ratio was 3.9.
